The record followed here is patent US20250283886.

The target in data set [1] is T1, AAPFQQ.
T1 chain: AAPFQQ

The target of data set [2] is T2, CCPFQQ.
T2 chain: CCPFQQ

Data set [3] deals with T3, DDPFQQ.
T3 chain: DDPFQQ

Data set [4] addresses T4, EEPFQQ.
T4 chain: EEPFQQ

The target in data set [5] is T5, FFPFQQ.
T5 chain: FFPFQQ

Data set [6] has as its target T6, FWPLPWPDDDY{LYSN3}NH2.
T6 chain: FWPLPWPDDDYK

In data set [7] the target is T7, FYPLPWPDDDY{LYSN3}NH2.
T7 chain: FYPLPWPDDDYX

Data set [8] concerns the target T8, GGPFQQ.
T8 chain: GGPFQQ

For data set [9], the target named is T9, HHPFQQ.
T9 chain: HHPFQQ

For data set [10], the target named is T10, IIPFQQ.
T10 chain: IIPFQQ

Data set [11] deals with T11, KKPFQQ.
T11 chain: KKPFQQ

Data set [12] addresses T12, LLPFQQ.
T12 chain: LLPFQQ

Data set [13] concerns the target T13, MMPFQQ.
T13 chain: MMPFQQ

The target of data set [14] is T14, NNPFQQ.
T14 chain: NNPFQQ

For data set [15], the target named is T15, PLPWPDDDY{LYSN3}NH2.
T15 chain: PLPWPDDDYX

The target in data set [16] is T16, PPPFQQ.
T16 chain: PPPFQQ

Data set [17] concerns the target T17, QP5-Atto649N (KAAAAAAFK{LYSN3}NH2).
T17 chain: KAAAAAAFKX

Data set [18] has as its target T18, QQPFQQ.
T18 chain: QQPFQQ

Data set [19] deals with T19, RRPFQQ.
T19 chain: RRPFQQ

Data set [20] addresses T20, SSPFQQ.
T20 chain: SSPFQQ

Data set [21] concerns the target T21, TTPFQQ.
T21 chain: TTPFQQ

The target in data set [22] is T22, VVPFQQ.
T22 chain: VVPFQQ

Data set [23] concerns the target T23, WAAAFPDDDF1.
T23 chain: WAAAFPDDDF

The target of data set [24] is T24, WWPFQQ.
T24 chain: WWPFQQ

The target in data set [25] is T25, YAAFAAWADDDW1.
T25 chain: YAAFAAWADDDW

Data set [26] deals with T26, YYPFQQ.
T26 chain: YYPFQQ

In data set [27] the target is T27, AAPAAP{LYSN3}NH2.
T27 chain: AAPAAPX

The target in data set [28] is T28, KKMKKMLys-Triazole-PEG4 Biotin.
T28 chain: KKMKKMX

Data set [29] concerns the target T29, KKMKKM{LYSN3}NH2.
T29 chain: KKMKKMX

Data set [30] addresses T30, KKPKKP{LYSN3}NH2.
T30 chain: KKPKKPX

Data set [31] concerns the target T31, RRPRRP{LYSN3}NH2.
T31 chain: RRPRRPX

Data set [32] deals with T32, AAMAAM{LYSN3}NH2.
T32 chain: AAMAAMX

Data set [33] addresses Attor6g-1kPEG-ODN-DD60-Biotin.
The target of data set [34] is T33, DDPDDP{LYSN3}NH2.
T33 chain: DDPDDPX

For data set [35], the target named is T34, FPFPFP{LYSN3}NH2.
T34 chain: FPFPFPX

The target of data set [36] is T35, GlyProArgPro.
T35 chain: GPRP

The target in data set [37] is T36, LPWPDDDY{LYSN3}NH2.
T36 chain: LPWPDDDYX

Data set [38] deals with T37, YPLPWPDDDY{LYSN3}NH2.
T37 chain: YPLPWPDDDYX

In data set [39] the target is T38, DDMDDM{LYSN3}NH2.
T38 chain: DDMDDMX

Data set [40] concerns the target T39, FFPFFP{LYSN3}NH2.
T39 chain: FFPFFPX

Data set [41] deals with T40, YYPYYP{LYSN3}NH2.
T40 chain: YYPYYPX

B1: Vibrio proteolyticus aminopeptidase (protein)
chain: MPPITQQATVTAWLPQVDASQITGTISSLESFTNRFYTTTSGAQASDWIASEWQALSASLPNASVKQVSHSGYNQKSVVMTITGSEAPDEWIVIGGHLDSTIGSHTNEQSVAPGADDDASGIAAVTEVIRVLSENNFQPKRSIAFMAYAAEEVGLRGSQDLANQYKSEGKNVVSALQLDMTNYKGSAQDVVFITDYTDSNFTQYLTQLMDEYLPSLTYGFDTCGYACSDHASWHNAGYPAAMPFESKFNDYNPRIHTTQDTLANSDPTGSHAKKFTQLGLAYAIEMGSATGDTPTPGNQ
With B1, the “HPLC Assay Conv; 1 mM Peptide, 1 uM enzyme, RT/0.5 hr” value in [1] turned out to be 100%; in data set [2], 70%; in data set [3] it was 0%; in data set [4] it was 0%; in data set [5], 100%; in data set [8], 8%. Also, the “HPLC Assay Conv; 1 mM Peptide, 1 uM enzyme, RT/0.5 hr” value in [9] is 12%; in [10] it was 100%; in data set [11], 32%; in data set [12] it was 100%; in data set [13], 100%; in data set [14] it was 15%. For the same protein, the “HPLC Assay Conv; 1 mM Peptide, 1 uM enzyme, RT/0.5 hr” value in data set [16] was determined as 0%; in data set [18] it was 66%; in [19] it was 79%; in data set [20], 48%; in data set [21], 100%; in [22], 100%. Moreover, the “HPLC Assay Conv; 1 mM Peptide, 1 uM enzyme, RT/0.5 hr” value in data set [24] amounted to 82%; in [26] it was 56%. Besides, the “HPLC Assay Conv; 200 uM Peptide, 4 uM enzyme, 37 C/1 hr” value in data set [6] is reported as 100%. In addition, the “HPLC Assay Conv; 400 uM Peptide, 8 uM enzyme, HEPES pH 8.0, 37 C/1 hr” value in data set [6] is listed as 100%. Further, in [7], the “HPLC Assay Conv; 200 uM Peptide, 4 uM enzyme, 37 C/0.5 hr” value is listed as 100%. The “HPLC Assay Conv; 300 uM Peptide, 4 uM enzyme, 37 C/0.5 hr” value in data set [7] and in data set [15] was 100% in each case. The “HPLC Assay Conv; 37 uM Peptide, 8 uM Enzyme, 37 C/0.5 hr” value in data set [17] amounted to 100%. In data set [23], the “HPLC Assay Conv; 300 uM Peptide, 8 uM enzyme, pH 8, 60 mM KOAc, 37 C/2 hr” value worked out at 100%. In addition, the “HPLC Assay Conv; 1 mM Peptide, 1.2 uM enzyme, RT/0.5 hr” value in data set [25] is “Distribution (product: Mainly ADDDWK)”.

B2: rat aminopeptidase N (protein)
chain: KPWNQYRLPKTLIPDSYQVTLRPYLTPNEQGLYIFKGSSTVRFTCNETTNVIIIHSKKLNYTNKGNHRVALRALGDTPAPNIDTTELVERTEYLVVHLQGSLVKGHQYEMDSEFQGELADDLAGFYRSEYMEGGNKKVVATTQMQAADARKSFPCFDEPAMKASFNITLIHPNNLTALSNMLPKDSRTLQEDPSWNVTEFHPTPKMSTYLLAYIVSEFKYVEAVSPNRVQIRIWARPSAIDEGHGDYALQVTGPILNFFAQHYNTAYPLEKSDQIALPDFNAGAMENWGLVTYRESALVFDPQSSSISNKERVVTVIAHELAHQWFGNLVTVDWWNDLWLNEGFASYVEFLGADYAEPTWNLKDLIVLNDVYRVMAVDALASSHPLSSPANEVNTPAQISELFDSITYSKGASVLRMLSSFLTEDLFKKGLSSYLHTFQYSNTIYLDLWEHLQQAVDSQTAIKLPASVSTIMDRWILQMGFPVITVNTSTGEIYQEHFLLDPTSKPTRPSDFNYLWIVPIPYLKNGKEDHYWLETEKNQSAEFQTSSNEWLLLNINVTGYYQVNYDENNWRKIQNQLQTDLSVIPVINRAQIIHDSFNLASAGKLSITLPLSNTLFLASETEYMPWEAALSSLNYFKLMFDRSEVYGPMKRYLKKQVTPLFAYFKIKTNNWLDRPPTLMEQYNEINAISTACSSGLEECRDLVVGLYSQWMNNSDNNPIHPNLRSTVYCNAIAFGGEEEWNFAWEQFRKATLVNEADKLRSALACSNEVWILNRYLSYTLNPDYIRKQDATSTIVSIANNVVGQTLVWDFVRSNWKKLFEDYGGGSFSFANLIQGVTRRFSSEFELQQLEQFKEDNSATGFGSGTRALEQALEKTKANIKWVKENKDVVLKWFTENS
With B2, the “HPLC Assay Conv; 1 mM peptide, 50 nM enzyme, 30 C/1 hr” value amounted to 100% in [27], 50% in data set [29], 85% in data set [30] and 55% in data set [31]. In addition, in data set [28], the “HPLC Assay Conv; 1 mM peptide, 150 nM enzyme, 30 C/1 hr” value is recorded as greater than 90%. Further, the “HPLC Assay Conv; 37 uM Peptide, 100 nM Enzyme, 37 C/0.5 hr” value in [17] is given as greater than 95%.

B3: Y. pestis proline iminopeptidase (protein)
chain: MTQQEYQNRRQALLAKMAPGSAAIIFAAPEATRSADSEYPYRQNSDFSYLTGFNEPEAVLILVKSDETHNHSVLFNRIRDLTAEIWFGRRLGQEAAPTKLAVDRALPFDEINEQLYLLLNRLDVIYHAQGQYAYADNIVFAALEKLRHGFRKNLRAPATLTDWRPWLHEMRLFKSAEEIAVLRRAGEISALAHTRAMEKCRPGMFEYQLEGEILHEFTRHGARYPAYNTIVGGGENGCILHYTENECELRDGDLVLIDAGCEYRGYAGDITRTFPVNGKFTPAQRAVYDIVLAAINKSLTLFRPGTSIREVTEEVVRIMVVGLVELGILKGDIEQLIAEQAHRPFFMHGLSHWLGMDVHDVGDYGSSDRGRILEPGMVLTVEPGLYIAPDADVPPQYRGIGIRIEDDIVITATGNENLTASVVKDPDDIEALMALNHAGENLYFQE
With B3, the “HPLC Assay Conv; 1 mM peptide, 700 nM enzyme, 30 C/6 hrs” value in data set [32] and in [34] was 0% in each case. Moreover, the “HPLC Assay Conv; 10 uM Peptide, 7 uM Enzyme, 37 C/0.5 hr” value in data set [33] turned out to be 100%. In data set [33], the “HPLC Assay Conv; 20 uM Q24 conjugate, 30 uM ypip, 30 C/0.3 hr” value was found to be 100%. Also, the “HPLC Assay Conv; 1 mM Peptide, 7 uM Enzyme, 37 C/0.5 hr” value in [35] is given as 100%. Besides, in data set [36], the “HPLC Assay Conv; 5 mM peptide, 50 nM enzyme, 30 C/1 hr” value was determined as 100%. The “HPLC Assay Conv; 300 uM Peptide, 7 uM enzyme, 37 C/0.5 hr” value in [37] and in data set [38] was 100% in each case.

B4: Pyrococcus horikoshii TET aminopeptidase (protein)
chain: MEVRNMVDYELLKKVVEAPGVSGYEFLGIRDVVIEEIKDYVDEVKVDKLGNVIAHKKGEGPKVMIAAHMDQIGLMVTHIEKNGFLRVAPIGGVDPKTLIAQRFKVWIDKGKFIYGVGASVPPHIQKPEDRKKAPDWDQIFIDIGAESKEEAEDMGVKIGTVITWDGRLERLGKHRFVSIAFDDRIAVYTILEVAKQLKDAKADVYFVATVQEEVGLRGARTSAFGIEPDYGFAIDVTIAADIPGTPEHKQVTHLGKGTAIKIMDRSVICHPTIVRWLEELAKKHEIPYQLEILLGGGTDAGAIHLTKAGVPTGALSVPARYIHSNTEVVDERDVDATVELMTKALENIHELKI
On to B4, for which the “HPLC Assay Conv; 1 mM peptide, 1 mM enzyme, 70 C/1 hr” value is reported as 100% in data set [27], 60% in [39], 100% in data set [40] and 100% in data set [41]. Further, the “HPLC Assay Conv; 1 mM Peptide, 1 uM enzyme, RT/0.5 hr” value is 100% in [1]; 32% in [2]; 4% in data set [3]; 0% in [4]; 100% in [5]; 33% in data set [8]. For the same protein, the “HPLC Assay Conv; 1 mM Peptide, 1 uM enzyme, RT/0.5 hr” value in data set [9] worked out at 26%; in [10], 100%; in data set [11] it was 0%; in [12], 100%; in data set [13] it was 0%; in [14], 69%. The “HPLC Assay Conv; 1 mM Peptide, 1 uM enzyme, RT/0.5 hr” value in data set [16] is 0%; in data set [18] it was 63%; in data set [19] it was 0%; in data set [20], 100%; in data set [21], 100%; in data set [22], 100%. In addition, the “HPLC Assay Conv; 1 mM Peptide, 1 uM enzyme, RT/0.5 hr” value in [24] came to 4%; in data set [26], 99%. Besides, the “HPLC Assay Conv; 200 uM Peptide, 2 uM enzyme, MgCl2/MOPS pH 8.0, 37 C/1 hr” value in [7] came out at 55%. Also, the “HPLC Assay Conv; 200 uM Peptide, 2 uM enzyme, ZnCl2/Tris pH 8.0, 37 C/1 hr” value in [7] was determined as 55%. In addition, the “HPLC Assay Conv; 200 uM Peptide, 4 uM enzyme, 37 C/1 hr” value in data set [15] stood at 100%. For the same protein, the “HPLC Assay Conv; 1 mM Peptide, 1.0 uM enzyme, RT/0.5 hr” value in [25] amounted to 100%.
